Tested on: HIV-1 144-44 (mutation L10I/M46I/I54V/L63P/A71V/V82A/L90M)
Test: XTT assay against drug resistant mutant HIV-1 144-44 in PBMCs
Format: cell-based
Conditions: ratio of EC50 between the two strains of Table 2
Text: One exemplary means to determine antiviral activity is with CEM-SS cells and virus (e.g., HIV-1RF) (MOI=0.01) using the XTT {2,3-bis[2-methoxy-4-nitro-5-sulfophenyl]-5- -[(phenylamino)carbonyl]-2H-tetrazolium hydroxide} cytoprotection assay, as described by Rice (1993) Proc. Natl. Acad. Sci. USA 90: 9721-9724, and Rice (1997) Antimicrob. Agents & Chemother. […] Briefly, cells are infected with HIV-1RF (or other virus to be tested) in the presence of various dilutions of test compounds and controls. The cultures are incubated for seven days. […] The cell death is measured by XTT dye reduction. XTT is a soluble tetrazolium dye that measures mitochondrial energy output, similar to MTT. […] Individual assays are done in duplicate using a sister plate method. […] Compound numbers therein refer to the numbers used in FIG. 1.

## Cc1cn([C@H]2C[C@H](N=[N+]=[N-])[C@@H](CO)O2)c(=O)[nH]c1=O [AZT, 3′-azido-2′, 3′-dideoxythymidine, reference compound]
  Fold less sensitive, first strain (HIV-1 144-44) versus second strain (HIV-1 1026040): approximately 200 fold

From patent US7528274B2, “Acylthiols and component thiol compositions as anti-HIV and anti-retroviral agents” (The United States of America as represented by the …, priority 2001, dated 2009)
